Data as given in publication PMC2582960, “A Structural Model of the Staphylococcus aureus ClfA–Fibrinogen Interaction Opens New Avenues for the Design of Anti-Staphylococcal Therapeutics” (PLoS Pathogens, 2008).

Biological target: GST-Fg γ^1–17 _(D16A) (human)
Test: ELISA; human Fg or GST fusion protein coated (1 µg/well); His-tagged ClfA added in increasing concentrations in HBS (10 mM HEPES, 100 mM NaCl, 3 mM EDTA, pH 7.4), 25°C, 1 h; bound ClfA detected with anti-His antibodies; apparent Kd

## ClfA_(229–545) (clumping factor A, N2N3 domains) (from UniProt Q53653 229-545) (domain or fragment)
  Kd: 35 nM
